# Share of PSTVd loop 6 variants by leaf site

The measurements come from Wu et al. 2024 (doi:10.1371/journal.ppat.1012142).

The pool varies loop 6 of the PSTVd intermediate strain in the pattern UNNNCGNNNG; wild type is UGACCGCGAG (upper and lower strand joined, each 5' to 3', the first 5 letters being the upper strand, closing pairs included).

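A pool of all variants was put on leaves of three Nicotiana benthamiana plants. Samples came from the inoculated region at 5 days, the leaf margin at 10 and upper systemic leaves at 12.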

Values are reads per thousand in the sample; higher means more abundant, 0 means not found. Each value is the mean of three plants. "Pool" is the share in the plasmid pool used as inoculum, on the same scale. The inoculated region was read from the minus strand, the other sites from the plus strand.

UCAGCGACUG (pool 0.235) read inoculated region 0.0706; leaf margin 0.00920; systemic leaves 0. UACCCGGGGG (pool 0.131) gave inoculated region 0.0713; leaf margin 0; systemic leaves 0. For UACGCUGUCC (pool 0.0261) the result was inoculated region 0; leaf margin 0; systemic leaves 0. With UCUACGGAGA (pool 0.0131) the assay gave inoculated region 0; leaf margin 0; systemic leaves 0. UACUCGCGAG (pool 0.118) gave inoculated region 0.192; leaf margin 0.172; systemic leaves 0.0137. UUUUCGAUAG (pool 0.235) gave inoculated region 0.118; leaf margin 0.0633; systemic leaves 0. With UUCACGUCCG (pool 0.288) the assay gave inoculated region 0.113; leaf margin 0.00773; systemic leaves 0. UAAGCGAUGG (pool 0.275) gave inoculated region 0.0902; leaf margin 0.0155; systemic leaves 0. With UCCUCGGUAG (pool 0.196) the assay gave inoculated region 0.0959; leaf margin 0; systemic leaves 0.

UUCCCGGUAG (pool 0.353) gave inoculated region 0.0896; leaf margin 0.0169; systemic leaves 0. UUGGCGAGUG (pool 0.248) gave inoculated region 0.100; leaf margin 0; systemic leaves 0. UUGACGACUG (pool 0.418) gave inoculated region 0.105; leaf margin 0; systemic leaves 0. For UGAGCGCGCG (pool 0.222) the result was inoculated region 0.0894; leaf margin 0.00773; systemic leaves 0. With UUCGCGAAUG (pool 0.510) the assay gave inoculated region 0.113; leaf margin 0; systemic leaves 0. UUGACGAAUG (pool 0.458) gave inoculated region 0.166; leaf margin 0; systemic leaves 0.00599. With UGAACGGAAG (pool 0.0523) the assay gave inoculated region 3.88; leaf margin 1.23; systemic leaves 0.540. With UCGCCGCCGG (pool 0.248) the assay gave inoculated region 0.102; leaf margin 0; systemic leaves 0. UGUCCGCGUG (pool 0.183) gave inoculated region 0.691; leaf margin 0.0942; systemic leaves 0.

UUUACGUACG (pool 0.235) read inoculated region 0.0836; leaf margin 0; systemic leaves 0. UCCGCGAACG (pool 0.248) gave inoculated region 0.0782; leaf margin 0; systemic leaves 0. For UUUUCGCCGG (pool 0.248) the result was inoculated region 0.0824; leaf margin 0; systemic leaves 0. UGCACGACCG (pool 0.196) gave inoculated region 0.0775; leaf margin 0.00773; systemic leaves 0. UGAUCGCAGG (pool 0.248) read inoculated region 0.0768; leaf margin 0; systemic leaves 0. UCAUCGGCGG (pool 0.288) gave inoculated region 0.113; leaf margin 0; systemic leaves 0.00673. UUUGCGCUCG (pool 0.209) gave inoculated region 0.0713; leaf margin 0.00773; systemic leaves 0. For CGACCGCCUG (pool 0.0131) the result was inoculated region 0.559; leaf margin 0.0873; systemic leaves 0. UUAACGCGUG (pool 0.288) gave inoculated region 0.0833; leaf margin 0.00920; systemic leaves 0.

Extract of 3 entries:

| sequence | pool | inoculated region | leaf margin | systemic leaves |
|---|---|---|---|---|
| UUUUCGAUAG | 0.235 | 0.118 | 0.0633 | 0 |
| UCUACGGAGA | 0.0131 | 0 | 0 | 0 |
| UGUCCGCGUG | 0.183 | 0.691 | 0.0942 | 0 |

Wild type was 20.7 per thousand in the pool and the most common sequence in every sample (inoculated region 195, 198, 203; leaf margin 629, 591, 734; systemic leaves 942, 870, 868). Sequences that differ at fixed positions probably stem from PCR or sequencing errors, and defective variants can be carried along by functional ones. Samples held 36,220 to 57,551 reads, so the smallest values rest on one or two reads.